Experimental data: patent publication US8609087B2, “Compounds and methods for identifying compounds which inhibit a new class of aspartyl proteases” (priority 1999, dated 2013)

Target: TcpJ type 4 prepilin peptidase (TFPP) (Vibrio cholerae serotype O1, UniProt A5F385, P151Q/Q149P/S169T)
Assay: biochemical
Format: biochemical

`O=C([O-])Cc1ccccc1Nc1c(Cl)cccc1Cl.[Na+]` [Voltaren] was tested, and the IC50 was ~110 µM and the “IC50 range (in words)” value was “micromolar range”.
